# Percent effect of library compounds

Mtb glucose medium: 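Growth of Mycobacterium tuberculosis over 3 days (7H9 medium with glucose and tyloxapol); the read-out is not stated. Concentration: 50 µM. Direction is inferred from retests: higher values go with more growth inhibition. Size under these conditions: about 69,000 compounds, about 760 of them at 50% or above in at least one test.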
Mtb cholesterol medium: 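Whole-cell growth test on Mycobacterium tuberculosis, read after 4 days in a medium based on cholesterol and the lipid DPPC; the read-out is not stated. Concentration: 50 µM. Direction is inferred from retests: higher values go with more growth inhibition. Size under these conditions: about 69,000 compounds, about 370 of them at 50% or above in at least one test.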

The filed quantity is “Percent Effect” (%).
How 0% and 100% were set is not recorded. Most values in the screen are low, and negative values occur.
This is part of a subset picked to be rich in strong results.
Two or more numbers in one place are separate tests of the same structure; such repeats can differ widely.

{"compound": "O=C(Cc1cccs1)Nc1cnn(C2CCOC2)c1", "stereo": "stereo not given", "Mtb cholesterol medium": 71.81}
{"compound": "CCOCC1CCN(C(=O)C(c2c(F)cccc2F)N(C)C)CC1", "stereo": "stereo not given", "Mtb cholesterol medium": -23.43}
{"compound": "O=C(c1ccco1)N1CCC(n2cc(-c3ccsc3)nn2)CC1", "Mtb cholesterol medium": -2.825}
{"compound": "COc1cccc2c1OCC(C(=O)N1Cc3ccccc3C1)C2", "stereo": "stereo not given", "Mtb glucose medium": 4.225}
{"compound": "Cc1cc2c(cc1CNC(Cc1cccs1)c1nccs1)OCO2.Cl", "stereo": "stereo not given", "Mtb glucose medium": 9.871, "Mtb cholesterol medium": "14.15 & 59.95"}
{"compound": "[H][C@]12CC[C@]([H])(CN(C(C)=O)C1)N(C(=O)CCc1n[nH]c3c1CCCC3)C2", "Mtb glucose medium": 4.824}
{"compound": "Cc1cc(C(=O)NCC2COCc3c(C)nnn3C2)no1", "stereo": "stereo not given", "Mtb glucose medium": -3.622}
{"compound": "O=C(NCCNc1ccc(C(F)(F)F)cn1)c1ccc(Cl)cc1F", "Mtb cholesterol medium": 51.83}
{"compound": "CCNc1nnc(SCc2nnc(C(C)(C)C)o2)s1", "Mtb glucose medium": -34.93, "Mtb cholesterol medium": -32.5}
{"compound": "CCOc1ccc(CN2C(=O)CC(C)(C)C2=O)nc1", "Mtb glucose medium": "1.027 & -15.76"}
{"compound": "CNC(=O)NC(=O)CCSc1ccccc1C", "Mtb glucose medium": -4.019}
{"compound": "CNC(=O)N1CCC(=Cc2ccccc2)CC1", "Mtb glucose medium": "14.49 & -1.055", "Mtb cholesterol medium": 4.843}
{"compound": "Cc1cccc(C(=O)NCc2ccnc(N(C)C)c2)n1", "Mtb glucose medium": -3.217, "Mtb cholesterol medium": -1.477}
{"compound": "COc1ccc(-c2nc(CNC(C)Cn3cccn3)cs2)cc1", "stereo": "stereo not given", "Mtb glucose medium": 59.35}
{"compound": "CC(Cn1cc(Br)cn1)C(=O)Nc1ccncc1", "stereo": "stereo not given", "Mtb glucose medium": 55.16}
{"compound": "CC(C)c1nccn1C(C)C(=O)N1CCN(c2cnccn2)CC1", "stereo": "stereo not given", "Mtb glucose medium": "111.3 & -7.649"}
{"compound": "Cc1noc(NC(=O)c2ccc(OC(F)(F)F)cc2)n1", "Mtb glucose medium": 98.69, "Mtb cholesterol medium": 68.31}
{"compound": "CCc1nnc2n1CCN(C(C(=O)NC1CC1)c1ccccc1)C2", "stereo": "stereo not given", "Mtb cholesterol medium": 97.1}
{"compound": "c1cc2c(cc1CN1CCN(Cc3noc(C4CC4)n3)CC1)OCO2", "Mtb glucose medium": -0.7615}
{"compound": "c1ccc(Cc2noc(CN3CCCCC3Cn3cccn3)n2)cc1", "stereo": "stereo not given", "Mtb glucose medium": 9.009}
{"compound": "NC(=O)c1ccc(CN2C(=O)C3(CCNCC3)Nc3ccccc32)cc1", "Mtb glucose medium": 14.58, "Mtb cholesterol medium": 3.983}
{"compound": "COCCN(Cc1ccoc1)C(=O)CSc1ccc(F)cc1", "Mtb glucose medium": 0.1393}
{"compound": "CN(C)c1cccc(C2CCN(c3ncccn3)CC2)n1", "Mtb glucose medium": 22.97}
{"compound": "CC(=O)Nc1ccc(SCC(O)COCc2ccco2)cc1", "stereo": "stereo not given", "Mtb glucose medium": "-4.486 & 1.171"}
{"compound": "Cn1cc(CNC2CCCOc3c(Cl)cccc32)cn1", "stereo": "stereo not given", "Mtb glucose medium": "2.795 & -40.97"}
{"compound": "COc1ccc(NC(C)=O)cc1OCc1cccnc1", "Mtb glucose medium": 4.636, "Mtb cholesterol medium": -31.93}
{"compound": "CC[C@@H](c1ccccc1)n1c(CCN)n[nH]c1=O", "Mtb glucose medium": 22.69}
{"compound": "CC1(C)CCC(C(=O)N2CCCO2)c2ccccc21", "stereo": "stereo not given", "Mtb cholesterol medium": 52.24}
{"compound": "CC(CNC(=O)c1ccon1)Oc1cccc(Br)c1", "stereo": "stereo not given", "Mtb cholesterol medium": "49.57 & 54.65"}
{"compound": "CN(Cc1ccco1)C(=O)CN1CCc2ccccc2C1", "Mtb glucose medium": 21.26, "Mtb cholesterol medium": 5.211}
{"compound": "COc1ccnc(NCC2CN(C3CC3)CCO2)n1", "stereo": "stereo not given", "Mtb glucose medium": 29.69}
{"compound": "CC(C)CNC(=O)c1cc2c(s1)CCN2S(C)(=O)=O", "Mtb cholesterol medium": -13.35}
{"compound": "CN(CCC1CCCCO1)c1nncc(-c2ccccc2)n1", "stereo": "stereo not given", "Mtb glucose medium": 55.57}

The last 4 entries again:

- CN(Cc1ccco1)C(=O)CN1CCc2ccccc2C1 | Mtb glucose medium: 21.26%; Mtb cholesterol medium: 5.211%
- COc1ccnc(NCC2CN(C3CC3)CCO2)n1 (stereo not given) | Mtb glucose medium: 29.69%
- CC(C)CNC(=O)c1cc2c(s1)CCN2S(C)(=O)=O | Mtb cholesterol medium: -13.35%
- CN(CCC1CCCCO1)c1nncc(-c2ccccc2)n1 (stereo not given) | Mtb glucose medium: 55.57%

The values are deposited in ChEMBL (CHEMBL3988442, “University of Dundee, Small-Polar-MMV Screening Library” (2021)).